Data as given in PubChem BioAssay AID624099 (ICCB-Longwood, 2012)

Assay: 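Human genes that papillomavirus E2 requires to repress the HPV18 LCR promoter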 (primary screen)
System: human C33A cervical carcinoma cells (HPV-negative) stably expressing BPV1 E2 and an HPV18 LCR luciferase reporter
Reagents: siRNA pool against human genes, 40 nM
Time to read-out: 72 h
Read-out: 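Per-well luciferase luminescence, z-scored on each plate against the plate mean and SD with control wells left out, then averaged across three replicate plates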
Reading the numbers: mean z-score and z-score: higher = stronger reporter signal, weaker E2 silencing
Call rule: 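Mean z ≥ 2 together with z ≥ 2 in two or more of the three replicates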
Here is an unselected part of about 21,000 deposited reagents. 497 of them (2.4%) were called active. 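Higher z means weaker E2 silencing; only reporter increases were scored, and knock-downs that hurt cell survival may mask genuine repressor factors.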 Reagent sequences are not shown.

target gene	mean z-score	z-score, replicate A	z-score, replicate B	z-score, replicate C	Call
PHB1 (prohibitin 1)	0.32	0.45	0.05	0.45	inactive
EPS8L2 (EPS8 signaling adaptor L2)	0.18	-0.09	0.26	0.38	inactive
PAX9 (paired box 9)	1.1	0.94	1.17	1.18	inactive
BTRC	-0.84	-1.07	-0.71	-0.75	inactive
PISD (phosphatidylserine decarboxylase)	-0.74	-0.64	-0.64	-0.94	inactive
TXN2 (thioredoxin 2)	0.48	0.5	0.38	0.55	inactive
PDLIM1 (PDZ and LIM domain 1)	-0.15	-0.17	-0.05	-0.22	inactive
TIMM23B (translocase of inner mitochondrial membrane 23 homolog B)	-0.07	-0.09	-0.11	-0.01	inactive
WAC (WW domain containing adaptor with coiled-coil)	-0.43	-0.09	-0.36	-0.85	inactive
ARHGAP18 (Rho GTPase activating protein 18)	-0.72	-0.59	-0.66	-0.91	inactive
HBG1 (hemoglobin subunit gamma 1)	-1.56	-1.65	-1.63	-1.41	inactive
PLD2 (phospholipase D2)	-0.27	-0.29	-0.27	-0.24	inactive
HS3ST4 (heparan sulfate-glucosamine 3-sulfotransferase 4)	-0.18	-0.15	-0.36	-0.04	inactive
CYP2R1 (cytochrome P450 family 2 subfamily R member 1)	0.2	0.5	0.21	-0.11	inactive
VIL1 (villin 1)	0.07	-0.2	0.35	0.06	inactive
RTP3 (receptor transporter protein 3)	0.7	0.62	0.47	1.01	inactive

Next part (2 carried over from the part before).
target gene	mean z-score	z-score, replicate A	z-score, replicate B	z-score, replicate C	Call
VIL1 (villin 1)	0.07	-0.2	0.35	0.06	inactive
RTP3 (receptor transporter protein 3)	0.7	0.62	0.47	1.01	inactive
SOX30 (SRY-box transcription factor 30)	1.66	1.4	1.95	1.64	inactive
SLAMF9 (SLAM family member 9)	0.21	0.31	0.41	-0.1	inactive
GCNT2 (glucosaminyl (N-acetyl) transferase 2 (I blood group))	0.33	0.33	0.47	0.19	inactive
LOC390121 (retired record)	-0.18	-0.11	-0.12	-0.31	inactive
TTL (tubulin tyrosine ligase)	0.57	0.59	0.36	0.75	inactive
SSR3 (signal sequence receptor subunit 3)	-0.9	-0.79	-1.14	-0.78	inactive
SFTPD (surfactant protein D)	0.42	0.04	0.19	1.04	inactive
LOC390683 (retired record)	0.46	0.53	0.35	0.49	inactive
PI15 (peptidase inhibitor 15)	0.28	0.06	0.13	0.65	inactive
MTMR11 (myotubularin related protein 11)	-0.37	0.27	-0.41	-0.98	inactive
RPS26P17 (ribosomal protein S26 pseudogene 17)	-0.53	-0.53	-0.53	-0.53	inactive
ARFRP1 (ARF related protein 1)	0.89	0.85	1.03	0.79	inactive
PCSK9 (proprotein convertase subtilisin/kexin type 9)	0.89	0.88	0.89	0.89	inactive
LINC01554 (long independently transcribed non-coding RNA 1554)	0.5	0.19	0.79	0.53	inactive
EDA2R (ectodysplasin A2 receptor)	-0.95	-1.02	-1.02	-0.82	inactive
OR5C1 (olfactory receptor family 5 subfamily C member 1)	0.29	0.53	0.09	0.25	inactive
LINC02656 (long independently transcribed non-coding RNA 2656)	0.54	0.85	0.46	0.31	inactive
WBP2P1 (WW domain binding protein 2 pseudogene 1)	0.42	0.73	0.46	0.07	inactive
UROS (uroporphyrinogen III synthase)	0.06	0.03	0	0.16	inactive
ANKRD30BP2 (ANKRD30B pseudogene 2)	1.64	1.92	1.75	1.26	inactive
CENPX (centromere protein X)	0	-0.08	0.37	-0.28	inactive
NIPSNAP3B (nipsnap homolog 3B)	0.83	0.62	1.1	0.75	inactive
HMGA1 (high mobility group AT-hook 1)	-1.19	-1.11	-1.36	-1.09	inactive
